Holding throughout (test): cryo-EM structure
Experiment [1] deals with major capsid protein (MCP, VP5) of pseudorabies virus (pseudorabies virus (PRV), Bartha strain).
For experiment [2] the target is unchanged. This is another data set of the same source.
Experiment [3] deals with portal protein pUL6 of pseudorabies virus (pseudorabies virus (PRV), Bartha strain).
For experiment [4], the target named is triplex protein Tri2 (VP23) of pseudorabies virus (pseudorabies virus (PRV), Bartha strain).

As a reminder, the stoichiometry N is a count of units in the complex or per binding partner.

Like-named read-outs stand apart in the source and are kept apart here.

Consider “major capsid protein (MCP, VP5) of pseudorabies virus (natural protein)”, for which the values for the stoichiometry N in experiment [1] and in experiment [2] were 5 and 6, respectively.
In the case of “portal protein pUL6 of pseudorabies virus (natural protein)”, in experiment [3], the stoichiometry N stood at 12.
In the case of “triplex protein Tri2 (VP23) of pseudorabies virus (natural protein)”, the stoichiometry N in experiment [4] stood at 2.

(Values after publication PMC8940892, “Structures of pseudorabies virus capsids” (2022).)
